In publication PMC3097197 (PLoS ONE, 2011):

Molecular target: YscN optimized catalytic domain (Yersinia pestis, UniProt Q7ARI8, C159S)

In the case of ATP, the “apparent Vmax” value (10 mM Tris pH 7.6, 150 mM NaCl, 1 mM Mg2+, 37°C) was 10.52±0.51 µmole Pi/min/mg of enzyme, the Km (read-out: apparent Km, 10 mM Tris pH 7.6, 150 mM NaCl, 1 mM Mg2+, 37°C) was 360 µM and the “Hill's coefficient” value (up to [ATP] = 4 mM) was 1.31±0.28.
